Experimental data reported in the supplement of paper PMC9931576.
Human monoclonal antibodies against the spike receptor-binding domain (heavy:light variable regions). IC50 against pseudoviruses bearing the spike of naturally observed variants; lower = stronger; >10 µg/ml means not reached at the top dose. No active / inactive call. The stated detection limit is 0.0005 µg/ml; values near or below 0.001 µg/ml lie at the floor of the assay.

B1: BD55-885 (protein)
chain 1: QVQLVQSGAEVKKPGASVRVSCKASGYPFTSFGISWVRQAPGQGLEWMGWISAISAYNGNKNYAQKFQGRVTMTTDTSTTTAYMELRSLRSDDTAVYYCARVGAYYDRSGHFTAENESFQHWGQGTLVSVSS
chain 2: QSVLTQPPSVSGAPGQRVTISCTGSSSNIGAAYDVHWYQQLPGTAPKLLIYGNSNRPSGVPDRFSGSKSGASASLAITGLQAEDEADYYCQSYDSSLSGPVVFGGGTKLTVL
B2: BD55-899 (protein)
chain 1: QVQLVQSGAEVKKPGSSVKVSCKASGGTFSSYAISWVRQAPGQGLEWMGRIIPILGIANYAQKFQGRVTITADKSTSTAYMELSSLRSEDTAVYYCARENHGGNSEDFDYWGQGTLVTVSS
chain 2: QSVLTQPPSVSGAPGQRVTISCTGSSSNIGAGYDVHWYQQLPGTAPKLLIYGNSNRPSGVPDRFSGSKSGTSASLAITGLQAEDEADYYCQSYDSSLSGSVFGGGTQLTVL
B3: BD55-902 (protein)
chain 1: QVQLVQSGAEVKKPGSSVKVSCKASRGTFSSYAINWVRQAPGQGLEWMGRIIPILGIVNYAQKFQGRVTLTADKSTSTAYMELSSLRSEDTAVFYCARGEYSGYDGDDYYYYYGIDVWGQGTTVTVSS
chain 2: SYELTQPPSVSVSPGQTARITCSGDALSKQYAYWYQQKPGQAPVLIIYKDSERPSGIPERFSGSSSGTTVTLTISGVQAEDEADYYCQSADSSNTYVLFGGGTKLTVL
B4: BD55-906 (protein)
chain 1: EVQLVESGGGLVQPGGSLRLSCAASGLTVSSNYMSWVRQAPGKGLEWVSVIYSGGSTFYADSVKGRFTISRHNSKDTLYLQMNSLRVEDTAVYYCARDLIYYGMDVWGQGTTVTVSS
chain 2: DIQLTQSPSFLSASVGDRVTITCRASQGISNYLAWYQQKPGKAPKLLIYAASTLQSGVPSRFSGSGSGTEFTLTISSLQPEDFATYYCQQLDSYPPAFGQGTRLEIK
B5: BD55-913 (protein)
chain 1: EVQLVQSGAEVKKPGESLRISCKGSGYSFSTYWITWVRQMPGKGLEWMGKIDPSDSYTNYSPSFQGHVTFSADKSISTAYLQWSSLKASDTAMYYCARVDYDILTDLYYFDYWGQGTLVTVSS
chain 2: DIQMTQSPSSLSASVGDRVTITCRASQSIGSYLNWYQQKPGKAPELLIYAASSLQSGVPSRFSGSGSGTDFTLTISSLQPEDFATYYCQQSYSTSFTFGPGTEVDIK
B6: BD55-914 (protein)
chain 1: QVQLVQSGAEVKKPGASVKVSCKASGNTFFSSDINWVRQTTGQGLEWMGWMNPNSGNRGSAQRFQGRITMTRNTSISTAYMELSSLISEDTAVYYCASGVGRGRAGTFHEDAFDIWGQGTKVTVSS
chain 2: DIQMTQSPSSLSASVGDRVTITCRASQGIRNSLAWYQQRPGKAPKLLLYGASILETGVPSRFSGSGSGTDYTLTISSLQPEDFATYYCQHYYTTPFTFGPGTKVDFK

Legend:
Experiment in all cases: pseudovirus neutralization IC50; higher = weaker neutralization
[1] = target: SARS-CoV-2 Omicron BA.1 spike pseudovirus
Method: (§1)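 Single-round VSV luciferase pseudovirus mixed with antibody dilutions for 1 h and put on Huh-7 cells for about a day; IC50 from the dose curve.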

[2] = target: SARS-CoV-2 Omicron BA.2 spike pseudovirus
Method: as §1

[3] = target: SARS-CoV-2 Omicron BA.2.75 spike pseudovirus
Method: as §1

[4] = target: SARS-CoV-2 Omicron BA.5 spike pseudovirus
Method: as §1

[5] = target: SARS-CoV-2 Omicron BQ.1.1 spike pseudovirus
Method: as §1

[6] = target: SARS-CoV-2 Omicron XBB spike pseudovirus
Method: as §1

[7] = target: SARS-CoV-2 early D614G spike pseudovirus
Method: as §1

Binder	pseudovirus neutralization IC50 [1]	pseudovirus neutralization IC50 [2]	pseudovirus neutralization IC50 [3]	pseudovirus neutralization IC50 [4]	pseudovirus neutralization IC50 [5]	pseudovirus neutralization IC50 [6]	pseudovirus neutralization IC50 [7]
B1	3.58 µg/mL	> 10 µg/mL	> 10 µg/mL	> 10 µg/mL	> 10 µg/mL	> 10 µg/mL	0.455 µg/mL
B2	> 10 µg/mL	> 10 µg/mL	> 10 µg/mL	> 10 µg/mL	> 10 µg/mL	> 10 µg/mL	> 10 µg/mL
B3	> 10 µg/mL	> 10 µg/mL	> 10 µg/mL	> 10 µg/mL	> 10 µg/mL	> 10 µg/mL	> 10 µg/mL
B4	0.593 µg/mL	0.349 µg/mL	> 10 µg/mL	4.94 µg/mL	> 10 µg/mL	> 10 µg/mL	0.00367 µg/mL
B5	> 10 µg/mL	> 10 µg/mL	> 10 µg/mL	> 10 µg/mL	> 10 µg/mL	> 10 µg/mL	4.18 µg/mL
B6	> 10 µg/mL	> 10 µg/mL	> 10 µg/mL	> 10 µg/mL	> 10 µg/mL	> 10 µg/mL	> 10 µg/mL
